Compound potency records, mixed from different reports. Data source: NIAID ChemDB in PubChem.

Shared fields: tests on isolated targets; agent: HIV-1; target: Reverse transcriptase; endpoint: inhibition

Percent inhibition refers to the dose given; in toxicity tests it is the harm to the cells. An empty or dashed field is not shown. Lines come from different laboratories, so protocols vary.

SMILES	strain	method	dose	value
CC(C)Nc1nccnc1N1CCN(C(=O)c2cc3cc(F)ccc3[nH]2)CC1	-	nucleotide incorporation	100 µM	94.5%
CCOc1ccc2nc(NC(=O)NCCc3ccccc3)sc2c1	-	nucleotide incorporation	0.1 µg/mL	1%
C=C1C(=O)O[C@@H]2C[C@@H]3[C@]4(CC[C@]5(C)[C@@H]([C@H](C)CC/C=C(\C)C=O)CC[C@@]35C)C[C@]4(CCC(=O)OC)[C@H]12	-	-	200 µg/mL	71.1%
C=CCOC(=O)N1c2ccc([N+](=O)[O-])cc2C=CC1C#N	-	nucleotide incorporation	50 µM	≤30%
O=C1NC(c2c[nH]c3ccc(O)cc23)=C/C1=C1\C(=O)NC2C=CC=CC12	-	RT activity / ELISA	300 µM	61.95%
CCCN1C(=O)c2cc(Cl)nnc2N(CC)c2ccccc21	-	-	330 µM	10%
CCNc1cccnc1N1CCN(Cc2ccc(OC)cc2)CC1	-	nucleotide incorporation	100 µM	40%
COc1ccc2c(c1)C=CC(C#N)N2C(=O)OC(C)C	-	nucleotide incorporation	50 µM	78.6%
CCOC(=O)CN1C(=O)c2cc(Cl)nnc2Oc2cc(C)ccc21	-	ELISA	33 µM	25%
CC(=O)N1c2ccccc2C=CC1C#N	-	nucleotide incorporation	50 µM	≤30%
C=C1OC(=O)CC[C@]23C[C@]24CC[C@]2(C)[C@@H]([C@H](C)CCC=C(C)C)CC[C@@]2(C)[C@@H]4CC[C@@H]13	-	-	200 µg/mL	2.6%
CCOC(=O)CN1C(=O)c2cc(Cl)nnc2Oc2ccccc21	-	ELISA	330 µM	35%
CCN1c2ncccc2-c2cscc2-c2ccc(Cl)nc21	-	nucleotide incorporation	1 µM	91%
CCNc1cccnc1N1CCN(CCCc2cc(C)c(OC)c(C)c2)CC1	-	nucleotide incorporation	100 µM	31%
COC(=O)C(=O)c1csc(NC(=O)NCCc2ccccc2)n1	-	nucleotide incorporation	10 µg/mL	13%
Nc1ncnc2c1ncn2[C@@H]1O[C@H](COP(=O)([O-])O[C@@H]2C[C@@H](COP(=O)([O-])O[C@@H]3C[C@@H](COP(=O)([O-])O)O[C@H]3n3cnc4c(N)ncnc43)O[C@H]2n2cnc3c(N)ncnc32)C[C@H]1O	IIIB	-	10 µM	21%
CC(C)Nc1cccnc1N1CCC(C2CCN(C(=O)c3cc4ccccc4[nH]3)CC2)CC1	-	nucleotide incorporation	100 µM	0%
CCCN1c2ccccc2N(CC)C(=O)c2ccnnc21	-	-	330 µM	59%
CC(C)Nc1ccnnc1N1CCN(C(=O)c2cc3cc(F)ccc3[nH]2)CC1	-	nucleotide incorporation	100 µM	88%
Cc1cc(C)c2c(c1)N(CC(C)C)C(=O)c1ccnnc1O2	-	ELISA	33 µM	47%
COc1cc(O)c2c(=O)cc(-c3cc(O)c(OC)c(OC)c3)oc2c1	-	-	200 µg/mL	5.9%
COC(=O)c1cc(O)c(O)c(O)c1	-	ELISA	200 µM	60.1%
Nc1ncnc2c1ncn2[C@@H]1O[C@H](COP(=O)(O)O[C@@H]2[C@H](O)[C@@H](COP(=O)(O)O[C@@H]3[C@H](O)[C@@H](COP(=O)(O)O)O[C@H]3n3cnc4c(N)ncnc43)O[C@H]2n2cnc3c(N)ncnc32)[C@@H](O)[C@H]1O	IIIB	-	10 µM	22%
O=C(NCCc1ccccc1)Nc1ccccc1	-	nucleotide incorporation	1 µg/mL	16%
CCOC(=O)N1c2ccc(NC(C)=O)cc2C=CC1C#N	-	nucleotide incorporation	50 µM	≤30%
Nc1ncnc2c1ncn2[C@@H]1O[C@H](COP(=O)([O-])O[C@@H]2C[C@@H](COP(=O)([O-])O)O[C@H]2n2cnc3c(N)ncnc32)[C@@H](O)[C@H]1OP(=O)([O-])OC[C@@H]1C[C@@H](O)[C@H](n2cnc3c(N)ncnc32)O1	IIIB	-	10 µM	20%
CCOC(=O)N1c2ccc(F)cc2C=CC1C#N	-	nucleotide incorporation	50 µM	≤30%
Cc1ccc2c(c1)N(C)C(=O)c1ccnnc1O2	-	ELISA	330 µM	37%
CCN1c2ccc(C)cc2N(C)C(=O)c2ccnnc21	-	-	330 µM	84%
CCOC(=O)N1c2ccccc2C=CC1C#N	-	nucleotide incorporation	50 µM	82.9%
O=C(NCCc1ccccc1)Nc1ncccn1	-	nucleotide incorporation	10 µg/mL	6%
CCN1c2ncccc2-c2cscc2-c2ccc(-c3cn[nH]c3)nc21	-	nucleotide incorporation	1 µM	92%
C/C1=C\C=C\C2(C)C=C(CO[C@H]3O[C@H](CO)[C@H](O)[C@H](O)[C@H]3O)C(C)CC23OC([O-])C(C3=O)C(O)/C=C/C2(C)C=C(C=O)C(C)CC23OC([O-])C(C3=O)C(O)/C(C)=C/C=C/C2C=C(CO[C@H]3O[C@H](CO)[C@H](O)[C@H](O)[C@H]3O)C(C)CC23OC([O-])C(C3=O)C(O)/C=C/C2(C)C=C(C=O)C(C)CC23OC([O-])C(C3=O)C1O	IIIB	RT activity	0.032 µg/mL	46.9%
O=C(NCCc1ccccc1)Nc1nc2ccc(Cl)cc2s1	-	nucleotide incorporation	10 µg/mL	18%
N#CC1C=Cc2ccccc2N1C(=O)C1=CC2C=CC=CC2S1	-	nucleotide incorporation	50 µM	45.9%
Cc1cccc2[nH]c(C(=O)N3CCN(c4ncccc4NC(C)C)CC3)cc12	-	nucleotide incorporation	100 µM	66%
Nc1ncnc2c1ncn2C1OC(COP(=O)(O)OC2C(O)C(COP(=O)(O)OC3C(O)C(CO)OC3n3cnc4c(N)ncnc43)OC2n2cnc3c(N)ncnc32)CC1O	IIIB	-	10 µM	16%
CCCN1c2ccccc2N(C)C(=O)c2cc(Cl)nnc21	-	-	330 µM	55%
C=C(C)OC(=O)N1c2ccc(OC)cc2C=CC1C#N	-	nucleotide incorporation	50 µM	≤30%

The last 4 rows once more:

SMILES | strain | method | dose | value
Cc1cccc2[nH]c(C(=O)N3CCN(c4ncccc4NC(C)C)CC3)cc12 | - | nucleotide incorporation | 100 µM | 66%
Nc1ncnc2c1ncn2C1OC(COP(=O)(O)OC2C(O)C(COP(=O)(O)OC3C(O)C(CO)OC3n3cnc4c(N)ncnc43)OC2n2cnc3c(N)ncnc32)CC1O | IIIB | - | 10 µM | 16%
CCCN1c2ccccc2N(C)C(=O)c2cc(Cl)nnc21 | - | - | 330 µM | 55%
C=C(C)OC(=O)N1c2ccc(OC)cc2C=CC1C#N | - | nucleotide incorporation | 50 µM | ≤30%